According to patent US20160281125A1, “ANTIMICROBIAL COMPOUND SUSCEPTIBILITY TEST” (priority 2013, published 2016):

Assays:
[1] = system: strains harboring plasmid encoded Class C beta-lactamases; experiment: Cephalosporin lysis test vs CLSI disk diffusion (Example 12); format: cell-based, Enterobacteriaceae; details: 500 μg/ml final, one hour, FIG. 20
[2] = system: strains harboring beta-lactamases together with other mechanisms of resistance; experiment: as above; format: cell-based, Enterobacteriaceae; details: 500 μg/ml final, FIG. 22
[3] = system: lab strains spiked into urine and BAL samples; experiment: Lysis test in spiked urine and bronchoalveolar lavage samples vs disk diffusion (Example 11); format: cell-based; details: simulated urines and BALs, FIGS. 17A and 17B
[4] = system: Enterobacteriaceae strains with Class A beta-lactamases; experiment: Cephalosporin lysis test vs CLSI disk diffusion (Example 12); format: cell-based; details: 500 μg/ml final, one hour, FIG. 18
[5] = system: class C beta-lactamase Enterobacteriaceae; experiment: Lysis test on simulated blood cultures vs CLSI disk diffusion (Example 8); format: cell-based; details: class C beta-lactamases; 6.67 μg/mL final, 60 minutes; FIG. 14
[6] = system: class A beta-lactamase Enterobacteriaceae; experiment: Lysis test on simulated blood cultures vs CLSI disk diffusion (Example 6); format: cell-based; details: class A beta-lactamase strains; 6.67 μg/mL final, 60 minutes; FIG. 12
[7] = system: class D beta-lactamase Enterobacteriaceae; experiment: Lysis test on simulated blood cultures vs CLSI disk diffusion (Example 9); format: cell-based; details: Class D beta-lactamases; 6.67 μg/mL final, 60 minutes; FIG. 15
Procedure: In this example, isolates tested include strains with and without carbapenemases. From fresh blood agar plates, three colonies per strain were used to inoculate blood culture media containing human blood and grown overnight at 37° C. with shaking, producing a simulated blood culture. Cultures were then diluted 1:10 into broth medium and grown for an additional hour at 37° C. with shaking. For each strain, four 250 μL aliquots were added into four separate 2 mL Eppendorf microcentrifuge tubes. […] Tubes were vortexed to resuspend the pellet completely, and then OD600 measurement was taken and the percent change, or percent lysis, between the control and antibiotic tubes was calculated (percent change=[control OD−antibiotic OD]/control OD). Results were then compared to the susceptibility of the strains, determined using the Clinical and Laboratory Standards Institute (CLSI) methods for disk diffusion. […]
Of note, if a strain was determined to be intermediate to a drug by the disk diffusion method using CLSI breakpoints, it was expected to correlate to the resistant answer by the method of the invention. […] With this consideration, it is preferable that intermediate strains are conservatively scored as resistant to prevent possible treatment failure. […]

[8] = system: class B beta-lactamase Enterobacteriaceae; experiment: Lysis test on simulated blood cultures vs CLSI disk diffusion (Example 7); format: cell-based; details: Class B beta-lactamases; zinc sulfate added; 6.67 μg/mL final, 60 minutes; FIG. 13
[9] = cephalosporins, 500 μg/mL final

## CC(C)(O/N=C(\C(=O)N[C@@H]1C(=O)N2C(C(=O)[O-])=C(C[n+]3ccccc3)CS[C@H]12)c1csc(N)n1)C(=O)O [ceftazidime]
[1]
  agreement with disk diffusion results: 83%
[2]
  agreement between this assay and the disk diffusion test: 75%
[3]; [9]
  concordance with the disc diffusion method: 96%
[4]
  agreement with disk diffusion results: 87%

## C[C@@H](O)[C@H]1C(=O)N2C(C(=O)O)=C(S[C@@H]3CN[C@H](C(=O)Nc4cccc(C(=O)O)c4)C3)[C@H](C)[C@H]12 [ertapenem]
[5]
  concordance with disk diffusion: 67%
[3]; carbapenems, 6.67 μg/mL final
  concordance with the disc diffusion method: 100%
[6]
  concordance between the tested method and the disk diffusion results: 100%
[7]
  concordance with disk diffusion: 83%
[8]
  concordance with disk diffusion: 57%

## CO/N=C(\C(=O)N[C@@H]1C(=O)N2C(C(=O)O)=C(COC(C)=O)CS[C@H]12)c1csc(N)n1 [cefotaxime]
[1]
  agreement with disk diffusion results: 67%
[2]
  agreement between this assay and the disk diffusion test: 75%
[3]; [9]
  concordance with the disc diffusion method: 93%
[4]
  agreement with disk diffusion results: 93%

## C[C@@H](O)[C@H]1C(=O)N2C(C(=O)O)=C(S[C@@H]3CN[C@H](C(=O)N(C)C)C3)[C@H](C)[C@H]12 [meropenem]
[5]
  concordance with disk diffusion: 100%
[3]; carbapenems, 6.67 μg/mL final
  concordance with the disc diffusion method: 82%
[6]
  concordance between the tested method and the disk diffusion results: 93%
[7]
  concordance with disk diffusion: 67%
[8]
  concordance with disk diffusion: 100%
